Results of unrelated studies side by side (data: NIAID ChemDB).

All rows: tests in culture; organism: HIV-1; read-out: EC50

ECn: concentration that inhibits the pathogen or its effect by n%. Rows are shuffled and stem from different studies. Blank or dashed fields: not listed here.

| compound | changes | strain or isolate | cells | method | setting | result |
|---|---|---|---|---|---|---|
| O=C1NCCN(Cc2cccc([N+](=O)[O-])c2)c2c1sc1ccc([N+](=O)[O-])cc21 |  |  | OM-10.1 | p24 |  | 0.01 µM |
| Nn1c(-c2ccc(Cl)cc2)n[nH]c1=S |  | IIIB | MT-4 |  |  | >100 µM |
| CC(C)C1=C2[C@H]3CC[C@@H]4[C@@]5(C)CC[C@H](OC(=O)[C@H]6C[C@@H](C(=O)O)C6(C)C)C(C)(C)[C@@H]5CC[C@@]4(C)[C@]3(C)CC[C@@]2(CC(=O)NC[C@@H]2CCCNC2)CC1=O |  | 92HT599 | MT-2 | p24 / ELISA |  | <1 µM |
| COc1cccc2c1N(C(=O)OC(C)C)C(CSC)C(=S)N2 | RT-L100I | IIIB | MT-4 | cytopathic effect / XTT |  | 0.07 µM |
| CC1=C[C@H]2[C@@]3(O)[C@H](C)[C@@H](OC(=O)/C=C/c4ccccc4)[C@]4(OC(=O)/C=C/c5ccccc5)[C@H]([C@@H]3C=C(COC(=O)/C=C/c3ccccc3)C[C@]2(O)C1=O)C4(C)C |  | IIIB | C8166 | p24 / ELISA |  | >200 µM |
| C=C(C)CN1CCNC(=O)c2sc3ccc(F)cc3c21 |  |  | OM-10.1 | p24 |  | 0.005 µM |
| NC(=O)[C@@H]1CCCN1 |  | IIIB | CEM |  |  | 1000 µM |
| CC(=O)N[C@@H](CC(=O)O)C(=O)N[C@H](C(=O)N[C@H](C(=O)N1CCC[C@H]1C(=O)N[C@@H](C)C(N)=O)[C@@H](C)O)[C@@H](C)O |  | JR-CSF | PBMC (PHA stimulated) + PBMC | p24 | 7 d | >0.1 µM |
| CC(c1ccccc1)N1CC[C@H](O)[C@@H](O)C1 |  | BRU | CEM + CEM-SS | cytopathic effect |  | >100 µg/mL |
| CC(C)CN(C[C@@H](O)[C@H](Cc1ccccc1)NC(=O)OCc1cncs1)S(=O)(=O)c1ccc2nc(NC(=O)CN3CCNCC3)sc2c1 |  | IIIB | MT-4 | cytopathic effect / MTT |  | 0.0288 µM |
| CNC(=O)CN |  | IIIB | CEM |  |  | 500 µM |
| O=C(NCc1c(F)cc(F)cc1F)c1cn2c(c(O)c1=O)C(=O)N1[C@H]3CC[C@H](C3)O[C@@H]1C2 |  | NL4-3 | CEM-GXR | GFP |  | 0.0015 µM |
| O[C@H]1CN(Cc2ccccc2)CC[C@@]1(O)c1ccccc1 |  | BRU | CEM + CEM-SS | cytopathic effect |  | 160 µg/mL |
| Cc1cn([C@H]2CC[C@@H](CCP(=O)(O)O)O2)c(=O)[nH]c1=O |  | IIIB | CEM | p24 |  | >200 µM |
| CC(=O)N(CCN1CCCC1)c1nc2ccc(S(=O)(=O)N(CC(C)C)C[C@@H](O)[C@H](Cc3ccccc3)NC(=O)O[C@H]3CO[C@H]4OCC[C@H]43)cc2s1 |  | IIIB | MT-4 | cytopathic effect / MTT |  | 0.0174 µM |
| CCCCCCCCCCCCCCCCCCCC(=O)O[C@@H]1[C@@H](C)[C@@]2(O)[C@@H](C=C(CO)C[C@]3(O)C(=O)C(C)=C[C@@H]23)[C@@H]2C(C)(C)[C@]12OC(=O)CCCCCCCCCCCCCCCCCCC |  | IIIB | C8166 | p24 / ELISA |  | 87.4 µM |
| O[C@H]1CCNC[C@@H]1O |  | BRU | CEM + CEM-SS | cytopathic effect |  | 2.7 µg/mL |
| CC(C)C1=C2[C@H]3CC[C@@H]4[C@@]5(C)CC[C@H](OC(=O)[C@H]6C[C@@H](C(=O)O)C6(C)C)C(C)(C)[C@@H]5CC[C@@]4(C)[C@]3(C)CC[C@@]2(CC(=O)NCC(C)(C)NC(=O)c2ccc(S(C)(=O)=O)cc2)CC1=O |  | 92HT599 | MT-2 | p24 / ELISA |  | <1 µM |
| COc1ccc(-c2nnc(SSc3nnc(-c4ccc(OC)cc4)n3N)n2N)cc1 | RT-Y181C | NNRTI-resistant N119 | MT-4 |  |  | >100 µM |
| Nc1nc(Cl)c2ccn([C@H]3C=C[C@@H](CO)C3)c2n1 |  | LAI | CEM + CEM-SS | RT activity |  | >100 µM |
| Cc1ccc(-c2nnc3sc(CN)nn23)cc1 | RT-Y181C | NNRTI-resistant N119 | MT-4 |  |  | >100 µM |
| CC(C)C1=C2[C@H]3CC[C@@H]4[C@@]5(C)CC[C@H](OC(=O)[C@H]6C[C@@H](C(=O)O)C6(C)C)C(C)(C)[C@@H]5CC[C@@]4(C)[C@]3(C)CC[C@@]2([C@@H](O)CNC(=O)c2ccc(Cl)cc2OCCN2CCCCC2)CC1=O |  | 92HT599 | MT-2 | p24 / ELISA |  | <1 µM |
| C[C@H](NC(=O)[C@@H]1CCCN1C(=O)[C@@H](NC(=O)[C@@H](NC(=O)[C@H](CC(=O)O)NC(=O)[C@@H](N)CO)[C@@H](C)O)[C@@H](C)O)C(=O)O |  | JR-CSF | PBMC (PHA stimulated) + PBMC | p24 | 7 d | >0.1 µM |
| CC(C)C1=C2C(CC1=O)[C@@H](C(=O)NCCN1CCS(=O)(=O)CC1)C[C@@H]1[C@@H]2CC[C@@H]2C3[C@H](C)C=C(C4=CCC(C(=O)O)CC4)C(C)(C)[C@@H]3CC[C@]21C |  | NL4-3 | MT-4 | MTS / propidium iodide |  | 3.39 µM |
| CC(C)CN(C[C@@H](O)[C@H](Cc1ccccc1)NC(=O)OCc1cncs1)S(=O)(=O)c1ccc2nc(N(C)C(=O)CN(C)CCCN3CCCC3)sc2c1 |  | R13080 | MT-4 | cytopathic effect / MTT |  | 3.16 µM |
| NC(=O)CCNC(=O)c1ccccc1SCc1ccc([N+](=O)[O-])o1 |  | HT/92/599 | PBMC | XTT |  | 8.15 µM |
| CCCCCCCCCCCCCCCC(=O)Nc1ccn([C@H]2CC[C@@H](COP(=O)(O)O[C@H]3C[C@H](n4cc(C)c(=O)[nH]c4=O)O[C@@H]3CO)O2)c(=O)n1 | Diphenyl sulfone-resistant (RT-Y181C) | DPS-resistant (RT-Y181C) | CEM + CEM-SS | cytopathic effect / XTT |  | 0.0294 µM |
| NC(=O)[C@@H](N)CCCN=C(N)N |  | IIIB | CEM |  |  | 500 µM |
| C[C@H](CCC(=O)NCC(=O)N[C@@H](Cc1cc(I)c(O)cc1I)C(=O)O)[C@H]1CC[C@H]2[C@@H]3[C@H](O)CC4C[C@H](O)CC[C@]4(C)[C@H]3C[C@H](O)[C@]12C |  | IIIB | H9 | syncytia |  | >100 µg/mL |
| CC(C)C1=C2[C@H]3CC[C@@H]4[C@@]5(C)CC[C@H](OC(=O)[C@H]6C[C@@H](C(=O)O)C6(C)C)C(C)(C)[C@@H]5CC[C@@]4(C)[C@]3(C)CC[C@@]2([C@@H](O)CNCC(C)(C)NC(=O)c2ccncc2)CC1=O |  | 92HT599 | MT-2 | p24 / ELISA |  | <1 µM |
| Cc1cccc(C)c1OCC(=O)N[C@@H](Cc1ccccc1)[C@H](O)CN(CC(C)C)S(=O)(=O)c1ccc2nc(NC(=O)c3ccccn3)sc2c1 |  | R13025 | MT-4 | cytopathic effect / MTT |  | 0.123 µM |
| COc1ccc([C@]2(OC)O[C@@H](c3cc(OC)c(OC)c(OC)c3)[C@@]3(C)O[C@@]23C)cc1OC |  |  | C8166 | cytopathic effect |  | 16 µg/mL |
| CC(C)C1=C2[C@H]3CC[C@@H]4[C@@]5(C)CC[C@H](OC(=O)[C@H]6C[C@@H](C(=O)O)C6(C)C)C(C)(C)[C@@H]5CC[C@@]4(C)[C@]3(C)CC[C@@]2(CCN(CCN(C)C)C(=O)c2ccncn2)CC1=O |  | 92HT599 | MT-2 | p24 / ELISA |  | <1 µM |
| O=C1NCCN(Cc2ccccc2F)c2c1oc1ccc(Br)cc21 |  |  | OM-10.1 | p24 |  | <0.002 µM |
| NC(=O)[C@@H](N)Cc1c[nH]c2ccccc12 |  | IIIB | CEM |  |  | 200 µM |
| CC(=O)OC[C@H]1O[C@@H](Sc2nnc(-c3ccc(C)cc3)n2N)[C@H](OC(C)=O)[C@@H](OC(C)=O)[C@@H]1OC(C)=O |  | IIIB | MT-4 |  |  | >100 µM |
| Nc1ncnc2c1ncn2[C@H]1CC[C@@H](CCP(=O)(O)O)O1 |  | IIIB | CEM | p24 |  | 60 µM |
| CN1C(=O)[C@@H](c2cc(Cl)c(O)c(Cl)c2)NC(=O)[C@@H]2NC(=O)[C@H](c3cc(Cl)c(O)c(Cl)c3)NC(=O)[C@@H](NC(=O)C(=O)c3cc(Cl)c(O)c(Cl)c3)Cc3c[nH]c4cc(ccc34)-c3cc2cc(c3O)Oc2ccc(cc2)C[C@H]1C(=O)N[C@@H](C(=O)O)c1ccc(O)cc1 |  |  | MT-4 | cytopathic effect / MTT |  | 3 µg/mL |
| CCCCCCCCCCCCCCCCCCCC(=O)O[C@@H]1[C@@H](C)[C@@]2(O)[C@@H](C=C(CO)C[C@]3(O)C(=O)C(C)=C[C@@H]23)[C@@H]2C(C)(C)[C@]12O |  | IIIB | C8166 | p24 / ELISA |  | 40 µM |
| CC(C)CN(C[C@@H](O)[C@H](Cc1ccccc1)NC(=O)OCc1cncs1)S(=O)(=O)c1ccc2nc(N(C)C(=O)CN3CCN(C)CC3)sc2c1 |  | R13025 | MT-4 | cytopathic effect / MTT |  | 0.0302 µM |
| CCN1CC[C@H](O)[C@@H](O)C1 |  | BRU | CEM + CEM-SS | cytopathic effect |  | >100 µg/mL |
| CC(C)Cn1cnc2c(N)nc3ccccc3c21 |  | NL4-3 | CD4+ T-cell | luciferase / reporter gene / luminescence | pseudotyped | 9.4 µM |
| COc1ncc(OC)c2c(C(=O)C(=O)N3CCN(C(=O)c4ccccc4)CC3)c[nH]c12 |  | MN | MT-2 | RT activity |  | >1 µM |
| CC1=C[C@H]2[C@@]3(O)[C@H](C)[C@@H](OC(=O)CCCCCCCCBr)[C@]4(OC(=O)CCCCCCCCBr)[C@H]([C@@H]3C=C(CO)C[C@]2(O)C1=O)C4(C)C |  | IIIB | C8166 | p24 / ELISA |  | 17.13 µM |
| OC[C@@H]1C=C[C@H](n2ccc3c(Cl)ncnc32)C1 |  | LAI | CEM + CEM-SS | RT activity |  | >100 µM |
| COc1cc2c(cc1Cc1cccc(Cl)c1F)c(=O)c(C(=O)O)cn2[C@H](CO)C(C)C |  | NL4-3 | CEM-GXR | GFP |  | 0.0009 µM |
| C=CCN1CCNC(=O)c2oc3ccccc3c21 |  |  | OM-10.1 | p24 |  | 2.1 µM |
| CCC(=O)c1ccc(F)c([C@H]2C[C@H]2NC(=O)Nc2ccc(C#N)cn2)c1O | RT-L100I | IIIB | MT-4 | cytopathic effect / XTT |  | 0.064 µM |
| CC[C@H](CC[C@@H](C)[C@H]1CC[C@H]2[C@@H]3CCC4=CC(=O)CC[C@]4(C)[C@H]3CC[C@]12C)C(C)C |  |  |  |  |  | 3.48 µg/mL |
| Nc1ccn([C@@H]2C=C[C@H](CO)C2)c(=O)n1 |  |  | PBMC |  |  | 35.8 µM |
| O=C1NCCN(Cc2ccccc2F)c2c1sc1ccc([N+](=O)[O-])cc21 |  |  | OM-10.1 | p24 |  | <0.002 µM |
| Nn1c(SC(c2ccccc2)c2ccccc2)nnc1-c1ccc(Cl)cc1 |  | IIIB | MT-4 |  |  | >100 µM |
| C[C@]1(O)CN(Cc2ccccc2)CC[C@@H]1O |  | BRU | CEM + CEM-SS | cytopathic effect |  | >100 µg/mL |
| C[C@H](CCC(=O)N[C@@H](Cc1cc(I)c(O)cc1I)C(=O)O)[C@H]1CC[C@H]2[C@@H]3CCC4C[C@H](O)CC[C@]4(C)[C@H]3C[C@H](O)[C@]12C |  | IIIB | H9 | syncytia |  | <0.001 µg/mL |
| Cc1cn([C@H]2C[C@H](N=[N+]=[N-])[C@@H](COP(=O)(OCCC#N)OC3CCC4(C)C(=CCC5C4CCC4(C)C(C(C)CCCC(C)C)CCC54)C3)O2)c(=O)[nH]c1=O |  |  | CEM | cytopathic effect / MTT |  | 5.67 µM |
| CC(C)CN(C[C@@H](O)[C@H](Cc1ccccc1)NC(=O)O[C@@H]1CO[C@@H]2OCC[C@@H]21)S(=O)(=O)c1ccc2nc(NC(=O)CN3CCCC3)sc2c1 |  | LAI | MT-4 | cytopathic effect / MTT |  | <0.05 µM |
| CC(C)C1=C2C(CC1=O)[C@@H](C(=O)NCCN1CCC(S(C)(=O)=O)CC1)C[C@@H]1[C@@H]2CC[C@@H]2C3[C@H](C)C=C(C4=CCC(C(=O)O)CC4)C(C)(C)[C@@H]3CC[C@]21C | V370A | NL4-3 | MT-4 | MTS / propidium iodide |  | >25 µM |
| CC(C)CN(C[C@@H](O)[C@H](Cc1ccccc1)NC(=O)OCc1cncs1)S(=O)(=O)c1ccc2nc(N(C)C(=O)CN3CCOCC3)sc2c1 |  | IIIB | MT-4 | cytopathic effect / MTT |  | 0.0091 µM |
| CC(=O)O[C@@]12[C@H](OC(=O)/C=C/c3ccc(F)cc3)[C@@H](C)[C@@]3(O)[C@@H](C=C(CO)C[C@]4(O)C(=O)C(C)=C[C@@H]34)[C@@H]1C2(C)C |  | IIIB | C8166 | p24 / ELISA |  | 0.0264 µM |
| [2H]C(CCN)(CNCC[C@@]12CC[C@]3(C)[C@H](CC[C@@H]4[C@@]5(C)CC[C@H](OC(=O)[C@H]6C[C@@H](C(=O)O)C6(C)C)C(C)(C)[C@@H]5CC[C@]43C)C1=C(C(C)C)C(=O)C2)NC(=O)c1ccc(Cl)cc1 |  | 92HT599 | MT-2 | p24 / ELISA |  | <1 µM |
| CC(C)[C@H](C)CC[C@](C)(O)[C@H]1C(=O)C[C@H]2[C@@H]3C(=O)C=C4C[C@@H](O)CC[C@]4(C)[C@H]3CC[C@@]21C | G140S INI-resistant | NL4-3 | MT-4 | MTT |  | 0.1402 µM |
| CC(C)CN(C[C@@H](O)[C@H](Cc1ccccc1)NC(=O)OCc1cncs1)S(=O)(=O)c1ccc2nc(NC(=O)CN3CCN(C)CC3)sc2c1 |  | IIIB | MT-4 | cytopathic effect / MTT |  | 0.0079 µM |
| CSCSc1nc(Cc2cc(C)cc(C)c2)c(C(C)C)c(=O)[nH]1 |  | IIIB | PBMC | MTT / p24 |  | 0.016 µM |
| CC(C)=CCN1Cc2c(OCCOCCOCCOCCOCCOCCn3c(=O)ccn([C@H]4C=C[C@@H](COP(=O)(O)OP(=O)(O)OP(=O)(O)O)O4)c3=O)ccc3[nH]c(=S)n(c23)C[C@@H]1C |  |  | MT-2 | MTT / absorbance |  | 20 µM |
| COc1ccc2ccc3c(c2c1)OC[C@H](C)NC3=O |  |  | OM-10.1 | p24 |  | 0.15 µM |
| CCc1c(Cc2ccccc2)nc(SCSC)[nH]c1=O |  | IIIB | PBMC | MTT / p24 |  | 0.8 µM |